Measured values from several laboratories, pooled; numbers as filed in NIAID ChemDB.

Common to all: whole-cell or culture tests; agent: Aspergillus fumigatus; read-out: MIC

Rows are shuffled and stem from different studies. a–b is a range or a potency band. An empty or dashed field is not shown.

SMILES,strain,method,value
Cc1ccc(Oc2c(C3C(C#N)=C(N)OC4=C3C(=O)CC(C)(C)C4)c(C)nn2-c2ccccc2)cc1,MTCC 3008,,1000 µg/mL
O=c1ccc2cc(C(O)O)ccc2o1,ATCC 16913,,>1000 µg/mL
O=C(CSc1nc2ccccc2[nH]1)N1CCN(C(c2ccccc2)c2ccc(Cl)cc2)CC1,ATCC 96918,broth dilution,>400 µg/mL
COc1ccc(CSC#N)cc1,,broth dilution,150 µg/mL
CC(C)=CCOc1ccc2c(c1C)C(=O)c1ccccc1C2=O,Standard strain,broth dilution,31.25 µg/mL
O=C(/C=C/c1cc2ccccc2nc1Cl)c1ccccc1,ATCC 26934,,>50 µg/mL
C[C@@H]1[C@H](O)[C@@H](C)/C=C/C=C/CC/C=C/C=C/C=C/C=C/C(O[C@H]2O[C@H](C)[C@@H](O)[C@H](N)[C@@H]2O)CC2O[C@](O)(CC(O)C(O)CCC(O)CC(O)CC(O)CC(=O)O[C@H]1C)CC(O)C2C(=O)O,MTCC 3008,broth dilution,100 µg/mL
C=C1/C=C(\C)[C@H](CC)OC(=O)[C@H](C)C(=O)C(O)(CO)C/C(OC)=C/[C@@H](C)C1,IAM2034,,>20 µg/mL
O=C(O)c1ccc(/C=C/C(=O)c2ccc(O)cc2)cc1,3 clinical isolates,,>32 µg/mL
COc1ccc(C(=O)CC(c2ccc3ccccc3c2)C(C#N)C#N)c(OC)c1,ATCC 26934,,>50 µg/mL
Cc1ccc(Oc2nc3ccccc3cc2C2C(C#N)=C(N)OC3=C2C(=O)CC(C)(C)C3)cc1,MTCC 3008,,500 µg/mL
CN[C@@H]1[C@H](O)[C@@H](O)[C@H](O[C@H]2c3cc(C)c(C(=O)N[C@H](C)C(=O)O)c(O)c3-c3c(cc4c(c3O)C(=O)c3cc(OC)cc(O)c3C4=O)[C@@H]2O)O[C@@H]1C,IAM2530,,3.1 µg/mL
Cc1ccc(C(=O)/C=C/c2ccc(C(=O)N3C/C(=C/c4ccccc4)C(=O)/C(=C\c4ccccc4)C3)cc2)cc1C,3 clinical isolates,,>32 µg/mL
CCOP(=O)(OCC)C(F)(F)[C@@H]1[C@@H](O)[C@H](O)[C@H](CO)N1CCNC1[C@@H](CO)O[C@H](OC)[C@H](NC(C)=O)[C@H]1O,,,>128 µg/mL
CCN1CCN(C)CC1,ITCC 4517,,250 µg/mL
Cc1ccc2occ(C(c3c(O)c4ccccc4oc3=O)c3c(O)c4ccccc4oc3=O)c(=O)c2c1,,agar diffusion / agar,25 µg/mL
Cc1ccc(-n2nc(C)c(C3C(C#N)=C(N)OC4=C3C(=O)CC(C)(C)C4)c2Oc2ccccc2)cc1,MTCC 3008,,1000 µg/mL
O=C1/C(=C\c2ccccc2)CN(C(=O)c2ccc(/C=C/C(=O)c3ccccc3)cc2)C/C1=C/c1ccccc1,3 clinical isolates,,>32 µg/mL
CN(C/C=C/c1ccccc1)Cc1cccc2ccccc12,,,>200 µM
Cc1ccc(Oc2c(C3C(C#N)=C(N)OC4=C3C(=O)CCC4)c(C)nn2-c2ccc(C)cc2)cc1,MTCC 3008,,500 µg/mL
Cc1ccc2nc(Oc3ccc(F)cc3)c(C3C(C#N)=C(N)OC4=C3C(=O)CCC4)cc2c1,MTCC 3008,,500 µg/mL
COc1ccc2ccc(=O)oc2c1,ATCC 16913,,1000 µg/mL
COc1cc(/C=C/C(=O)c2cc(OC)c(OC)c(OC)c2)cc(OC)c1OC,ATCC 26934,,>50 µg/mL
CCCCCOc1ccc(-c2cc(-c3ccc(C(=O)N[C@H]4C[C@@H](O)[C@@H](O)NC(=O)[C@@H]5[C@@H](O)[C@@H](C)CN5C(=O)[C@H]([C@H](O)CC(N)=O)NC(=O)[C@H]([C@H](O)[C@@H](O)c5ccc(O)c(OS(=O)(=O)O)c5)NC(=O)[C@@H]5C[C@@H](O)CN5C(=O)[C@H]([C@@H](C)O)NC4=O)cc3)no2)cc1,,,0.015–0.03 µg/mL
CC(=O)Oc1ccc2ccc(=O)oc2c1,ATCC 16913,,500 µg/mL
COc1cc(C(=O)CC(c2cc(OC)c(OC)c(OC)c2)C(C#N)C#N)cc(OC)c1OC,ATCC 26934,,>50 µg/mL
COc1cc(/C=C/C(=O)N2C/C(=C\c3ccccc3)C(=O)/C(=C/c3ccccc3)C2)cc(OC)c1OC,3 clinical isolates,,>32 µg/mL
O=[N+]([O-])c1cn(CC(O)CN2CCN(C(c3ccccc3)c3ccc(Cl)cc3)CC2)cn1,ATCC 96918,broth dilution,50 µg/mL
Cc1ccc2nc(N3CCOCC3)c(CC(C#N)c3nc4ccccc4[nH]3)cc2c1,MTCC 3008,broth dilution,500 µg/mL
O=C1/C(=C\c2ccccc2)CN(C(=O)c2ccc(/C=C/C(=O)c3ccc(Cl)c(Cl)c3)cc2)C/C1=C/c1ccccc1,3 clinical isolates,,>32 µg/mL
C(=C\c1ccccc1)/CN(Cc1cccc2ccccc12)n1cncn1,,,>200 µM
Cc1ccc(Oc2c(C3C(C#N)=C(N)OC4=C3C(=O)CCC4)c(C)nn2-c2ccccc2)cc1,MTCC 3008,,500 µg/mL
COc1ccc2nc(Oc3ccc(F)cc3)c(C3C(C#N)=C(N)OC4=C3C(=O)CCC4)cc2c1,MTCC 3008,,500 µg/mL
O=C/C=C/c1ccccc1,MTCC 2550,broth dilution,80 µg/mL
COc1cccc(CSC#N)c1,,broth dilution,300 µg/mL
COc1ccc(Oc2c(C3C(C#N)=C(N)OC4=C3C(=O)CCC4)c(C)nn2-c2ccccc2)cc1,MTCC 3008,,250 µg/mL
CCCCCOc1ccc(-c2cc(-c3ccc(C(=O)N[C@H]4C[C@@H](O)[C@@H](O)NC(=O)[C@@H]5[C@@H](O)[C@@H](C)CN5C(=O)[C@H]([C@H](O)CC(N)=O)NC(=O)[C@H]([C@H](O)[C@@H](O)c5ccc(O)c(OS(=O)(=O)O)c5)NC(=O)[C@@H]5C[C@@H](O)CN5C(=O)[C@H]([C@@H](C)O)NC4=O)cc3)no2)cc1,IFM40814,,0.0078 µg/mL
COc1ccc2oc(=O)ccc2c1,ATCC 16913,,>1000 µg/mL
CC1(C)CC(=O)C2=C(C1)OC(N)=C(C#N)C2c1cc2ccccc2nc1Oc1ccccc1,MTCC 3008,,>1000 µg/mL
CCCCCCCCNC1CCc2cccc(O)c2C1,,,16 µM
COc1ccc(CN=C=S)cc1,,broth dilution,1 µg/mL
COc1ccc2nc(Oc3ccc(C)cc3)c(C3C(C#N)=C(N)OC4=C3C(=O)CCC4)cc2c1,MTCC 3008,,1000 µg/mL
CCC(C)CC(C)CCCCCCCCC(=O)N[C@H]1C[C@@H](O)[C@H](NCCN)NC(=O)[C@@H]2[C@@H](O)CCN2C(=O)[C@H]([C@H](O)CCN)NC(=O)[C@H]([C@H](O)[C@@H](O)c2ccc(O)cc2)NC(=O)[C@@H]2C[C@@H](O)CN2C(=O)[C@H]([C@@H](C)O)NC1=O,,,0.015–4 µg/mL
CCC(C)n1ncn(-c2ccc(N3CCN(c4ccc(OC[C@H]5CO[C@](Cn6cncn6)(c6ccc(Cl)cc6Cl)O5)cc4)CC3)cc2)c1=O,NFI 0159,,0.25 µg/mL
Clc1ccc(C(c2ccccc2)N2CCN(Cc3nc4ccccc4[nH]3)CC2)cc1,ATCC 96918,broth dilution,50 µg/mL
N[C@@H](Cc1ccc(N(CCCl)CCCl)cc1)C(=O)O,3 clinical isolates,,>32 µg/mL
C(#Cc1ccccc1)CN1CCN(Cc2ccccc2)CC1,ITCC 4517,,500 µg/mL
COc1cc2cc(/C=C/C(=O)c3ccc(Cl)cc3)c(Cl)nc2cc1OC,ATCC 26934,,>50 µg/mL
Cc1ccc2nc(N3CCOCC3)c(CC(C#N)c3nc4ccc(C)cc4[nH]3)cc2c1,MTCC 3008,broth dilution,250 µg/mL
C[C@@H]1[C@H](O)[C@@H](C)/C=C/C=C/CC/C=C/C=C/C=C/C=C/C(O[C@H]2O[C@H](C)[C@@H](O)[C@H](N)[C@@H]2O)CC2O[C@](O)(CC(O)C(O)CCC(O)CC(O)CC(O)CC(=O)O[C@H]1C)CC(O)C2C(=O)O,MTCC 3008,turbidity / visual reading,100 µg/mL
CCCCCOc1ccc(-c2ccc(-c3ccc(C(=O)N[C@H]4C[C@@H](O)[C@@H](O)NC(=O)[C@@H]5[C@@H](O)[C@@H](C)CN5C(=O)[C@H]([C@H](C)O)NC(=O)[C@H]([C@H](O)[C@@H](O)c5ccc(O)cc5)NC(=O)[C@@H]5C[C@@H](O)CN5C(=O)[C@H]([C@H](C)O)NC4=O)cc3)cc2)cc1,ATCC 204305,XTT,>128 µg/mL
Cc1ccc2nc(N3CCOCC3)c(/C=C(/C#N)c3nc4ccc(C)cc4[nH]3)cc2c1,MTCC 3008,broth dilution,500 µg/mL
CC(C)=CCc1c(O)ccc2ccc(=O)oc12,ATCC 16913,,250 µg/mL
C[C@@H](c1ncncc1F)[C@](O)(Cn1cncn1)c1ccc(F)cc1F,NFI 0239,,1 µg/mL
COc1cc(O)c2c(c1)C(=O)c1c(cc3c(c1O)-c1c(cc(C)c(C(=O)N[C@H](C)C(=O)O)c1O)[C@H](O[C@@H]1O[C@H](C)[C@H](N)[C@H](O[C@@H]4OC[C@@H](O)[C@H](O)[C@@H]4O)[C@H]1O)[C@H]3O)C2=O,IAM2034,,1.6 µg/mL
C[C@@H](c1nc(-c2ccc(C#N)cc2)cs1)[C@](O)(Cn1cncn1)c1cc(F)ccc1F,,,0.06–4 µg/mL
N#CCc1ccccc1,,broth dilution,150 µg/mL
O=Cc1ccc2oc(=O)ccc2c1,ATCC 16913,,1000 µg/mL
O=C1/C(=C/c2ccccc2)CNC/C1=C\c1ccccc1,3 clinical isolates,,>32 µg/mL
O=C/C=C/c1ccccc1,MTCC 2550,broth dilution,80 µg/mL
O=c1oc2ccccc2c(O)c1C(c1c(O)c2ccccc2oc1=O)c1c[nH]c2ccccc12,,agar diffusion / agar,50 µg/mL

8 of the rows above, restated:

SMILES	strain	method	value
COc1cccc(CSC#N)c1		broth dilution	300 µg/mL
COc1ccc(Oc2c(C3C(C#N)=C(N)OC4=C3C(=O)CCC4)c(C)nn2-c2ccccc2)cc1	MTCC 3008		250 µg/mL
CCCCCCCCNC1CCc2cccc(O)c2C1			16 µM
CCC(C)n1ncn(-c2ccc(N3CCN(c4ccc(OC[C@H]5CO[C@](Cn6cncn6)(c6ccc(Cl)cc6Cl)O5)cc4)CC3)cc2)c1=O	NFI 0159		0.25 µg/mL
CCCCCOc1ccc(-c2cc(-c3ccc(C(=O)N[C@H]4C[C@@H](O)[C@@H](O)NC(=O)[C@@H]5[C@@H](O)[C@@H](C)CN5C(=O)[C@H]([C@H](O)CC(N)=O)NC(=O)[C@H]([C@H](O)[C@@H](O)c5ccc(O)c(OS(=O)(=O)O)c5)NC(=O)[C@@H]5C[C@@H](O)CN5C(=O)[C@H]([C@@H](C)O)NC4=O)cc3)no2)cc1			0.015–0.03 µg/mL
C[C@@H](c1ncncc1F)[C@](O)(Cn1cncn1)c1ccc(F)cc1F	NFI 0239		1 µg/mL
COc1ccc(CSC#N)cc1		broth dilution	150 µg/mL
COc1ccc2nc(Oc3ccc(F)cc3)c(C3C(C#N)=C(N)OC4=C3C(=O)CCC4)cc2c1	MTCC 3008		500 µg/mL